# Data source: PubChem BioAssay AID504761 (Drosophila RNAi Screening Center, 2011)
# Test: 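Insect host genes that dengue virus relies on to spread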 (primary screen)
# System: D.Mel-2 cells from Drosophila
# Reagents: long dsRNA against Drosophila genes
# Treatment: infection with dengue virus type 2; dose and infection time not stated
# Measurement: 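Cells stained for dengue envelope protein and imaged; percent of infected cells per well on duplicate plates, ranked by infection, with stained nuclei counted for cell number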
# Direction: infection score: higher = more virus-infected cells; cell count: higher = more cells in the well
# Call rule: 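Very low infection ranking in both replicate wells (chance probability at most 0.065), then a retest showing infection dropped 1.5-fold or more at p below 0.05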
# Meaning of the calls: active = confirmed: knock-down lowers infection; inactive = not picked or not confirmed
# In all, the deposit lists about 22,000 reagents; shown is an unselected part of those with a known target gene and a result. Over the whole deposit, 116 (0.52%) are marked active. 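Calls depend on retest data that are not deposited; infection was ranked per plate without normalising between plates; the unit of the infection score is not given.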 Raw values are not corrected between plates. Unmarked entries are inactive. The numbers tell different reagents against one gene apart. A plus sign joins genes that one reagent is predicted to hit. No sequences are given here. The record does not give: the amount of reagent, the time to read-out.
predicted target,reagent no.,"infection score, replicate 1","infection score, replicate 2","cell count, replicate 1","cell count, replicate 2"
CG4480,1,5.61,12.6,6402,3834
CG14777,1,1.24,5.58,6776,1684
KP78b + KP78a,1,0.79,6.26,6587,6966
KP78b + KP78a,2,1.34,7.48,6579,6681
KP78b + KP78a,3,14.9,10.2,5708,6522
CG8204,1,6.81,2.53,6802,6720
E(spl)mdelta-HLH,1,8.19,20.6,6590,3743
Cyp4d14,1,2.36,4.78,6061,5253
Cyp4d14,2,2.2,5.63,5538,6038
TTLL5,1,5.21,7.89,5782,6540
snRNP-U1-70K,1,12.9,29.8,5917,5373
snRNP-U1-70K,2,4.6,2.09,4695,4308
snRNP-U1-70K,3,11.9,6.41,1793,1170
cad,1,3.86,32.9,5991,5722
cad,2,11.7,28.4,6814,5622

Ordered by “cell count, replicate 1” (highest first): 2 of the entries above
predicted target,reagent no.,"infection score, replicate 1","infection score, replicate 2","cell count, replicate 1","cell count, replicate 2"
CG14777,1,1.24,5.58,6776,1684
KP78b + KP78a,1,0.79,6.26,6587,6966

Additional records follow.
predicted target,reagent no.,"infection score, replicate 1","infection score, replicate 2","cell count, replicate 1","cell count, replicate 2"
fbl + CG33969,1,12.2,16.6,6682,6335
ATPsynCF6L,1,2.23,1.37,5926,5997
ATPsynCF6L,2,15,4.93,6837,6757
lama,1,6.89,6.45,6531,6530
e(y)2,1,12.2,24.8,6004,5553
CG1418,1,6.44,6.79,6831,6263
CG1418,2,14.3,20.7,6275,6283
CG7275,1,21.5,11.2,5011,6328
